Test results as given in patent US20050256302A1, “Novel peptides having camp producing activity” (Japan Science and Technology Agency, priority 2002, published 2005).
Where a SMILES comes first, the peptide text is derived from it. Bridges are numbered along the chain shown (N, C = ends).

Experiment: Concentration of CRSP in tissues by radioimmunoassay
Parameters: species or system pig
Details: mean ± standard error (n = 3)

Compound: CSCC[C@H](NC(=O)[C@H](CCCCN)NC(=O)[C@@H](NC(=O)[C@@H]1CCCN1C(=O)[C@H](CC(C)C)NC(=O)[C@H](CC(C)C)NC(=O)[C@H](CC(N)=O)NC(=O)[C@H](CO)NC(=O)[C@H](CCCNC(=N)N)NC(=O)[C@@H](NC(=O)[C@H](CCSC)NC(=O)[C@H](CO)NC(=O)CNC(=O)[C@H](CO)NC(=O)[C@H](CCCNC(=N)N)NC(=O)[C@H](CO)NC(=O)[C@H](CC(C)C)NC(=O)[C@H](CC(C)C)NC(=O)CNC(=O)[C@@H](NC(=O)[C@H](CC(C)C)NC(=O)[C@H](CCCNC(=N)N)NC(=O)[C@H](Cc1c[nH]cn1)NC(=O)[C@@H](NC(=O)[C@H](CCSC)NC(=O)[C@@H]1CSSC[C@H](NC(=O)[C@@H](N)CO)C(=O)N[C@@H](CC(N)=O)C(=O)N[C@@H]([C@@H](C)O)C(=O)N[C@@H](C)C(=O)N[C@@H]([C@@H](C)O)C(=O)N1)[C@@H](C)O)C(C)C)C(C)C)[C@@H](C)O)C(=O)NCC(=O)N[C@@H](Cc1ccccc1)C(=O)N[C@@H](CCCCN)C(=O)N[C@H](C(=O)N[C@@H](Cc1ccccc1)C(=O)NCC(N)=O)C(C)C [CRSP] (H-SCNTATCMTHRLVGLLSRSGSMVRSNLLPTKMGFKVFG-NH2; disulfide 2-7)
- Immunoactivity of CRSP (pig Liver): 0.13 ± 0.02 pmol/g tissue
- Immunoactivity of CRSP (pig Lung): 0.11 ± 0.00 pmol/g tissue
- Immunoactivity of CRSP (pig Midbrain): 7.5 ± 0.9 pmol/g tissue
- Immunoactivity of CRSP (pig Olfactory bulb): 0.74 ± 0.22 pmol/g tissue
- Immunoactivity of CRSP (pig Ovary): 0.18 ± 0.09 pmol/g tissue
- Immunoactivity of CRSP (pig Pancreas): 0.066 ± 0.010 pmol/g tissue
- Immunoactivity of CRSP (pig Pons/Medulla oblongata): 2.2 ± 0.3 pmol/g tissue
- Immunoactivity of CRSP (pig Posterior pituitary): 96 ± 15 pmol/g tissue
- Immunoactivity of CRSP (pig Small intestine): 0.072 ± 0.018 pmol/g tissue
- Immunoactivity of CRSP (pig Spinal cord): 0.52 ± 0.06 pmol/g tissue
- Immunoactivity of CRSP (pig Spleen): 0.11 ± 0.01 pmol/g tissue
- Immunoactivity of CRSP (pig Stomach): 0.29 ± 0.00 pmol/g tissue
- Immunoactivity of CRSP (pig Thalamus): 3.5 ± 0.4 pmol/g tissue
